Measured values from several laboratories, pooled; numbers as filed in NIAID ChemDB.

Shared fields: whole-cell or culture tests; agent: HIV-1

An empty or dashed field is not shown. ECn: concentration that inhibits the pathogen or its effect by n%. Conditions beyond the fields shown may differ between rows.

structure	strain	cell line	method	mutations	measure	result
Cc1ccnc2c1NC(=O)c1cccnc1N2C1CC1	NL4-3	Jurkat cells		+Vpx	EC50	0.095 µM
COc1cncc(-c2cnc(C(C)(C)N3CCN(C[C@@H](O)C[C@@H](Cc4nnc(-c5ccccc5)o4)C(=O)N[C@H]4c5ccccc5OC[C@H]4O)[C@H](C(=O)NCC(F)(F)F)C3)o2)c1	K-60 Clinical isolate	MT-4	p24	PR-L10I M46I I54V Q58E L63P I64V V77I V82F I84V L90M I93L	EC50	<0.25 µM
Cc1cn([C@H]2C[C@H](N=[N+]=[N-])[C@@H](CO)O2)c(=O)[nH]c1=O	Clinical isolate H112-2 pre-AZT	CEM + CEM-SS	plaque count		EC50	0.0005 µM
Cc1cn([C@H]2C=C[C@@H](CO)O2)c(=O)[nH]c1=O	NL4-3	Jurkat cells		+Vpx	EC50	4.3 µM
C/C=C/CSc1cc(NC(=S)c2ccsc2C)ccc1Cl	NL4-3 (RT L74V)	CEM + CEM-SS	cytopathic effect / XTT	RT-L74V	EC50	0.02 µM
CC(C)Nc1cccnc1N1CCN(C(=O)c2cc3cc(NS(C)(=O)=O)ccc3[nH]2)CC1	NI-10.93 (HXB2 RT T69N K70R Q151M)	MT-4	cytopathic effect	RT-T69N K70R Q151M	EC50	0.04 µM
O=C(O)P(=O)(O)O	8681 CLADE D CLADE D	PBMC	p24		EC50	17.1 µM
Cc1nnc(C[C@H](C[C@H](O)CN2CCN(Cc3ccc(-c4ccc(Cl)cc4)o3)C[C@H]2C(=O)NCC(F)(F)F)C(=O)N[C@H]2c3ccccc3OC[C@H]2O)o1	V-18 Clinical isolate	MT-4	p24	PR-L10I M36I N37D M46I R57K L63P A71V G73S I84V L90M I93L	EC95	0.063 µM
Fc1cccc(F)c1[C@@H]1SCc2nc3ccccc3n21	IIIB	CEM	cytopathic effect / XTT	RT-Y188C	EC50	13.87 µM
Cc1ccnc2c1NC(=O)c1cccnc1N2C1CC1	TIBO R82150-resistant (RT A98G V108I)	CEM + CEM-SS	cytopathic effect / XTT	RT-A98G V108I	EC50	0.6 µM
Nc1nc(NC2CC2)c2ncn([C@H]3C=C[C@@H](CO)C3)c2n1	NL4-3	MDM			EC50	0.003 µM
O=c1[nH]cnc2c1ncn2[C@H]1CC[C@@H](CO)O1	BI-03.97 (HXB2(RT-A62V S68G T69D V75I F77L F116Y Q151M))	MT-4	cytopathic effect	RT-A62V S68G T69D V75I F77L F116Y Q151M	EC50	349 µM
Cc1occc1C(=S)Nc1ccc(Cl)c(/C=N/OC(C)(C)C)c1	NL4-3 (RT V106I)	CEM + CEM-SS	cytopathic effect / XTT	RT-V106I	EC50	2.7 µM
C[C@H](Cn1cnc2c(N)ncnc21)OCP(=O)(O)O	NL4-3	MDM			EC50	6.114 µM
CCCc1nnc(C[C@H](C[C@H](O)CN2CCN(C(C)(C)c3ncc(-c4ccc(Cl)cc4)o3)C[C@H]2C(=O)NCC(F)(F)F)C(=O)N[C@H]2c3ccccc3OC[C@H]2O)o1	NL4-3 WT	MT-4	p24		EC95	≤0.008 µM
Nc1nc(N)c2ncn([C@H]3CO[C@@H](CO)O3)c2n1	IIIB	MT-2	RT activity		EC50	0.54 µM
Nc1nc(NC2CC2)c2ncn([C@H]3C=C[C@@H](CO)C3)c2n1	Site-directed mutant	MT-2	cytopathic effect / XTT	RT-K65R Y115F	EC50	>3.44 µM
Fc1cccc(F)c1C1SCc2nc3ccccc3n21	IIIB	PBMC	RT activity		EC50	0.66 µM
Nc1nc(=O)n([C@@H]2CS[C@H](CO)O2)cc1F	Site-directed mutant	MT-2	cytopathic effect / XTT	RT-K65R Y115F	EC50	19.6 µM
Nc1nc2c(ncn2[C@H]2CO[C@@H](CO)O2)c(=O)[nH]1	IIIB	H9	RT activity		EC50	0.06 µM
CC(C)(c1ncc(-c2ccc(Cl)cc2)o1)N1CCN(C[C@@H](O)C[C@@H](Cc2nnco2)C(=O)N[C@H]2c3ccccc3OC[C@H]2O)[C@H](C(=O)NCC(F)(F)F)C1	V-18 Clinical isolate	MT-4	p24	PR-L10I M36I N37D M46I R57K L63P A71V G73S I84V L90M I93L	EC50	<0.063 µM
CCCCCCCCCCCCSCC(COP(=O)([O-])OCC[N+](C)(C)C)OCCCCCCCCO	Clinical isolate H112-2 pre-AZT	CEM + CEM-SS	plaque count		EC50	0.21 µM
Cc1ccnc2c1NC(=O)c1cccnc1N2C1CC1	NNRTI-resistant (RT K103N Y181C)	MAGI	β-galactosidase	RT-K103N Y181C	EC50	>8 µM
CC(C)(c1ncc(-c2ccc(Cl)cc2)o1)N1CCN(C[C@@H](O)C[C@@H](Cc2nnc(-c3ccccc3)o2)C(=O)N[C@H]2c3ccccc3OC[C@H]2O)[C@H](C(=O)NCC(F)(F)F)C1	NL4-3 WT	MT-4	p24		EC95	≤0.008 µM
CC(C)=CCN1Cc2cc(Cl)cc3[nH]c(=S)n(c23)C[C@@H]1C	IIIB	CEM	cytopathic effect / XTT		EC50	0.07 µM
O=C(N[C@H]1c2ccccc2OC[C@H]1O)[C@H](Cc1nnco1)C[C@H](O)CN1CCN(Cc2ccc(-c3ccc(Cl)cc3)o2)C[C@H]1C(=O)NCC(F)(F)F	V-18 Clinical isolate	MT-4	p24	PR-L10I M36I N37D M46I R57K L63P A71V G73S I84V L90M I93L	EC50	<0.125 µM
CCCCCCCCCCCCSCC(COP(=O)([O-])OCC[N+](C)(C)C)OCCCCCCCCC(=O)OCC(=O)OC[C@H]1O[C@@H](n2cc(C)c(=O)[nH]c2=O)C[C@@H]1N=[N+]=[N-]	IIIB	CEM + CEM-SS	plaque count		EC50	0.004 µM
Nc1ccn([C@H]2CC[C@@H](CO)O2)c(=O)n1	FO-01.95	MT-4	cytopathic effect		EC50	1.55 µM
CCCc1nnc(C[C@H](C[C@H](O)CN2CCN(C(C)(C)c3ncc(-c4cncc(OC)c4)o3)C[C@H]2C(=O)NCC(F)(F)F)C(=O)N[C@H]2c3ccccc3OC[C@H]2O)o1	V-18 Clinical isolate	MT-4	p24	PR-L10I M36I N37D M46I R57K L63P A71V G73S I84V L90M I93L	EC95	>1 µM

Again, the opening 2 rows:

structure,strain,cell line,method,mutations,measure,result
Cc1ccnc2c1NC(=O)c1cccnc1N2C1CC1,NL4-3,Jurkat cells,,+Vpx,EC50,0.095 µM
COc1cncc(-c2cnc(C(C)(C)N3CCN(C[C@@H](O)C[C@@H](Cc4nnc(-c5ccccc5)o4)C(=O)N[C@H]4c5ccccc5OC[C@H]4O)[C@H](C(=O)NCC(F)(F)F)C3)o2)c1,K-60 Clinical isolate,MT-4,p24,PR-L10I M46I I54V Q58E L63P I64V V77I V82F I84V L90M I93L,EC50,<0.25 µM